{"source": "ChEMBL document CHEMBL4303097", "about": "(2020)", "system": "SARS-CoV-2", "test": "Inhibition of cell viability relative to arbidol control (inhibition index > 1 indicates higher activity) measured by fluorescence (OD590nm) in Vero E6 cells infected with SARS-CoV-2 (strain BavPat1) at MOI 0.002 after 72hrs", "type": "functional", "conditions": "Chlorocebus sabaeus; Vero C1008", "data": [{"smiles": "NC(=O)Nc1ccc([As](=O)(O)O)cc1", "values": [{"measurement": "Inhibition index", "value": 0.0461}]}]}
